Pooled drug test results. Numbers come from NIAID ChemDB, via PubChem.

Common to all: tests in culture; organism: HIV-2; method: cytopathic effect / XTT; measure: EC50

ECn: concentration that inhibits the pathogen or its effect by n%. Rows are shuffled and stem from different studies. An empty or dashed field is not shown.

structure	cells	strain	result
Cn1cc(NC(=O)Nc2cc(C(=O)Nc3cc(C(=O)Nc4ccc(S(=O)(=O)O)c5cc(S(=O)(=O)O)ccc45)n(C)c3)n(C)c2)cc1C(=O)Nc1cc(C(=O)Nc2ccc(S(=O)(=O)O)c3cc(S(=O)(=O)O)ccc23)n(C)c1	CEM + CEM-SS	ROD	13.8 µM
O=C1[C@@H](Cc2ccc(O)cc2)NC(=S)N1c1ccccc1	MT-4		<100 µg/mL
CCCCCCCCCCCCCCCC(=O)Nc1ccn([C@H]2CC[C@@H](COP(=O)(O)O[C@H]3C[C@H](n4cc(C)c(=O)[nH]c4=O)O[C@@H]3CO)O2)c(=O)n1	CEM + CEM-SS	ROD	0.0568 µM
Nc1ccn([C@H]2CC[C@@H](CO)O2)c(=O)n1	CEM + CEM-SS	ROD	>0.03 µM
O=C(NCCc1ccccc1)Nc1cncc(Cl)n1	MT-4		<1 µg/mL
COc1cc(C)cc2c(-c3c(O)cc(O)c4c3C[C@H](C)N[C@H]4C)cc(-c3cc(-c4c(O)cc(O)c5c4C[C@H](C)N[C@H]5C)c4cc(C)cc(OC)c4c3O)c(O)c12	MT-2	NIH-DZ	>250 µM
C[C@H](CCC(=O)NC(CO)CS(=O)(=O)O)[C@H]1[C@@H](O)[C@H](O)C2C3C[C@@H](O)[C@@]4(O)C[C@@H](O)CC[C@]4(C)C3CC[C@@]21C	CEM + CEM-SS	CLB20	>100 µM
[O-][n+]1onc2ncnc(N3CC[N+]4(CC3)CC[N+]3(CCN(c5ncnc6no[n+]([O-])c56)CC3)CC4)c21	CEM + CEM-SS	ROD	13.3 µM
Cn1cc(NC(=O)Nc2cc(C(=O)Nc3cc(C(=O)Nc4ccc(P(=O)(O)O)c5cc(P(=O)(O)O)ccc45)n(C)c3)n(C)c2)cc1C(=O)Nc1cc(C(=O)Nc2ccc(P(=O)(O)O)c3cc(P(=O)(O)O)ccc23)n(C)c1	CEM + CEM-SS	ROD	>200 µM
Cc1cc(C)cc(C(=O)c2c(C(C)C)c(=O)[nH]c(=O)n2CC2=CCCC2)c1	CEM + CEM-SS	ROD	0.1 µM
CCC(C)C(NC(=O)c1ccccc1SSc1ccccc1C(=O)NC(C(=O)O)C(C)CC)C(=O)O	CEM + CEM-SS	ROD	2.6 µM
CC(C)=CCN1CC(C)Cn2c(=S)[nH]c3cccc1c32	CEM(SS) + CEM-SS	ROD	>71.2 µM
CC(C)C(CCOS(=O)(=O)O)CC[C@@H](C)[C@H]1[C@@H](O)[C@H](O)[C@@H]2[C@]1(C)CC[C@H]1[C@@]2(O)C[C@@H](O)[C@@]2(O)C[C@@H](O)CC[C@]12C	CEM + CEM-SS	CLB20	>100 µM
CN1N=C(N)c2cn([C@@H]3O[C@H](COP(=O)(O)O)[C@@H](O)[C@H]3O)c3ncnc1c23	CEM + CEM-SS	ROD	0.02 µM
CC(C)=CCOc1cc(NC(=S)c2ccsc2C)ccc1Cl	CEM + CEM-SS	ROD	>20 µM
CC(=O)N1C(=O)[C@@H](Cc2ccccc2)NC1=S	MT-4		>100 µg/mL
CC(C)=CCOc1cc(NC(=S)c2ccoc2C)ccc1Cl	CEM + CEM-SS	ROD	>20 µM
CCOc1ccccc1CCNC(=S)Nc1nccs1	MT-4		<1 µg/mL
CC(C)[C@H](CC[C@@H](C)[C@H]1C[C@H](OS(=O)(=O)O)[C@H]2[C@@H]3C[C@H](O)[C@H]4C[C@@H](O)CC[C@]4(C)[C@H]3CC[C@@]21C)OC1OC[C@@H](O)[C@H](O)[C@@H]1O	CEM + CEM-SS	CLB20	>100 µM

Repeating the first 2 entries:

structure | cells | strain | result
Cn1cc(NC(=O)Nc2cc(C(=O)Nc3cc(C(=O)Nc4ccc(S(=O)(=O)O)c5cc(S(=O)(=O)O)ccc45)n(C)c3)n(C)c2)cc1C(=O)Nc1cc(C(=O)Nc2ccc(S(=O)(=O)O)c3cc(S(=O)(=O)O)ccc23)n(C)c1 | CEM + CEM-SS | ROD | 13.8 µM
O=C1[C@@H](Cc2ccc(O)cc2)NC(=S)N1c1ccccc1 | MT-4 |  | <100 µg/mL